Measured values from several laboratories, pooled; numbers as filed in NIAID ChemDB.

Shared fields: tests in culture; organism: HIV-1; read by: β-galactosidase; measure: EC50

a–b is a range or a potency band.

smiles | changes | strain | cell line | value
CC(O)CCCCCC(CCCCCCCCCCCCCC1CC(=O)OC[C@H]2O[C@@H](OC(CCCCCCCCCCCC(CCCCCC(C)O)O[C@@H]3O[C@H](CO)[C@@H](O)[C@H](O)[C@H]3O)CC(=O)OC[C@@H]3O[C@H](O1)[C@@H](O)[C@H](O)[C@H]3O)[C@H](O)[C@@H](O)[C@@H]2O)O[C@@H]1O[C@H](CO)[C@@H](O)[C@H](O)[C@H]1O | - | IIIB | MAGI (CCR5) + MAGI | 4.3 µg/mL
CCc1ccc(CCN=C2NC(=O)/C(=C/c3ccc(-c4ccc(C(=O)O)c(O)c4)o3)S2)cc1 | - | AD8 | TZM-bl | 0.85 µM
Cc1cc(C)cc(C(=O)c2cc(Cl)ccc2OCC(=O)Nc2ccc(S(N)(=O)=O)cc2C)c1 | RT-P236L | HXB2 | HeLa + HELA CD4+ | <0.01 µM
C#C[C@@H](O)C1=C[C@@H](n2cnc3c(N)ncnc32)[C@H](O)[C@@H]1O | - | - | HeLa CD4+/TAT+ + HeLa | 38 µM
O=C1NC(=NCCc2ccc(F)cc2)S/C1=C\c1ccc(-c2cccc([N+](=O)[O-])c2)o1 | - | AD8 | TZM-bl | >10 µM
Nc1ccn([C@H]2CC[C@@H](CO)O2)c(=O)n1 | N126K | NL4-3 | - | 0.256 µM
CCc1cc(C#N)cc(C(=O)c2cc(Cl)ccc2OCC(=O)Nc2ccc(S(N)(=O)=O)cc2C)c1 | RT-K103N Y181C | HXB2 (RT-K103N Y181C) Recombinant | HeLa + HELA CD4+ | <0.01 µM
Nc1ncnc2c1ncn2[C@@H]1CC[C@@H](O)[C@H]1O | - | - | HeLa CD4+/TAT+ + HeLa | 1.3 µM
O=C1NC(=NCc2ccc(Cl)c(F)c2)S/C1=C\c1ccc(-c2ccc(C(=O)O)c(O)c2)o1 | - | AD8 | TZM-bl | 3 µM
Cc1cc(C#N)cc(C(=O)c2cc(Cl)ccc2OCC(=O)Nc2ccc(OCCCN3CC=CC3)cc2C)c1 | RT-G190A | HXB2 | HeLa + HELA CD4+ | <0.01 µM
Cc1cc(S(N)(=O)=O)ccc1NC(=O)COc1ccccc1C(=O)c1cc(Cl)cc(C#N)c1 | RT-K103N P225H | - | HeLa MAGI + HeLa | <0.005 µM
Cc1c(OCC2CCC2)c2cc(F)ccc2[nH]c1=O | RT-V106A | NNRTI-resistant (RT V106A) | HeLa + HeLa-MAGI | >2 µM
O=C(COc1ccc(Cl)cc1C(=O)c1ccccc1)Nc1ccc2cn[nH]c2c1 | - | WTRVA | HeLa + HELA CD4+ | <0.01 µM
N=C1Sc2ccccc2C2=NCCCN12 | - | 93BR021 | PBMC | 0.6 µM
CS(=O)(=O)Nc1ccc(NC(=O)COc2ccc(Cl)cc2C(=O)c2ccccc2)cc1 | RT-Y181C | HXB2 | HeLa + HELA CD4+ | 0.011–0.1 µM
O=C1NC(=Nc2ccc(F)c(Cl)c2)S/C1=C\c1ccc(-c2ccc(C(=O)O)c(O)c2)o1 | - | AD8 | TZM-bl | >10 µM
Cc1cc(S(N)(=O)=O)ccc1NC(=O)COc1ccc(Cl)cc1C(=O)c1cc(Cl)cc(C#N)c1 | RT-V106A Y181C | HXB2 | HeLa + HELA CD4+ | <0.01 µM
Nc1nccc2c1ncn2[C@@H]1CC[C@@H](O)[C@H]1O | - | - | HeLa CD4+/TAT+ + HeLa | 0.29 µM

The last 2 rows once more:

smiles | changes | strain | cell line | value
Cc1cc(S(N)(=O)=O)ccc1NC(=O)COc1ccc(Cl)cc1C(=O)c1cc(Cl)cc(C#N)c1 | RT-V106A Y181C | HXB2 | HeLa + HELA CD4+ | <0.01 µM
Nc1nccc2c1ncn2[C@@H]1CC[C@@H](O)[C@H]1O | - | - | HeLa CD4+/TAT+ + HeLa | 0.29 µM

Rows are shuffled and stem from different studies. Blank or dashed fields: not listed here. ECn is the concentration giving n% inhibition of infection, replication or growth.